Measured values from several laboratories, pooled; numbers as filed in NIAID ChemDB.

Shared fields: growth or infection tests; organism: Encephalomyocarditis virus

ECn: concentration that inhibits the pathogen or its effect by n%.

smiles,endpoint,cells,method,result
CN(C)c1nsc(-c2ccccc2)c1C#N,EC50,L929,plaque count,>15 µg/mL
Cn1[se]c2c(ccc[n+]2C)c1=O,MIC,,,2 µg/mL
NC(=O)c1csc([C@@H]2O[C@H](CO)[C@@H](O)[C@H]2O)n1,EC50,HeLa,cytopathic effect,43 µg/mL
C(=Nc1ccccc1[Se][Se]c1ccccc1N=Cc1ccccc1)c1ccccc1,MIC,,,8 µg/mL
CCCSc1nsc(-c2ccccc2)c1C#N,EC50,L929,plaque count,5 µg/mL
O=c1c2cccnc2[se]n1-c1ccc(Cl)cc1,MIC,,,500 µg/mL
CCCN1[Se]c2ccccc2NC1=O,MIC,,,4 µg/mL
C[n+]1cccc2c(=O)n(-c3ccccn3)[se]c21,MIC,,,2 µg/mL
NS(=O)(=O)c1ccc(NC(=O)c2ccccc2[Se][Se]c2ccccc2C(=O)Nc2ccc(S(N)(=O)=O)cc2)cc1,MIC,,,600 µg/mL
O=c1c2cccnc2[se]n1N(c1ccccc1)c1ccccc1,MIC,,,500 µg/mL
CCSc1nsc(-c2ccccc2)c1C#N,EC50,L929,plaque count,20 µg/mL
O=S(=O)(Nc1ccccc1[Se][Se]c1ccccc1NS(=O)(=O)c1ccccc1)c1ccccc1,MIC,,,200 µg/mL
CC(C)(C)n1[se]c2ncccc2c1=O,MIC,,,4 µg/mL
N#CCSc1nsc(-c2ccccc2)c1C#N,EC50,L929,plaque count,>10 µg/mL
O=C(CCC[Se][Se]CCCC(=O)Nc1ccc(S(=O)(=O)N2CCCCC2)cc1)Nc1ccc(S(=O)(=O)N2CCCCC2)cc1,MIC,,,>1000 µg/mL
N#Cc1c(SCCCBr)nsc1-c1ccccc1,EC50,L929,plaque count,2.5 µg/mL
CCCN1[Se]c2ccccc2NC1=S,MIC,,,100 µg/mL
CCCSc1nsc(-c2ccccc2)c1C(N)=O,EC50,L929,plaque count,>30 µg/mL
O=c1c2cccnc2[se]n1N(c1ccccc1)c1ccccn1,MIC,,,500 µg/mL

For reference, 2 entries again:

smiles | endpoint | cells | method | result
O=C(CCC[Se][Se]CCCC(=O)Nc1ccc(S(=O)(=O)N2CCCCC2)cc1)Nc1ccc(S(=O)(=O)N2CCCCC2)cc1 | MIC |  |  | >1000 µg/mL
O=S(=O)(Nc1ccccc1[Se][Se]c1ccccc1NS(=O)(=O)c1ccccc1)c1ccccc1 | MIC |  |  | 200 µg/mL

Blank or dashed fields: not listed here. Conditions beyond the fields shown may differ between rows.